Measured values taken from US12048783B2, “2,4-disubstituted pyridines as malodor counteracting ingredients” (FIRMENICH SA, priority 2017, dated 2024).

Key:
[1] = tested on: Escherichia coli DSMZ 1103; assay: MIC test; assay type: cell-based; conditions: DSMZ1103, read-out: MIC of 4-methyl-2-pentyl-pyridine, E. coli, average of three replicates, overnight 37° C., lowest concentration with no growth
[2] = tested on: Staphylococcus haemolyticus ATCC 114126; assay: MIC test; assay type: cell-based; conditions: ATCC114126, read-out: MIC of 4-methyl-2-pentyl-pyridine, S. haemolyticus, average of three replicates, overnight 37° C., lowest concentration with no growth

MIC [1]: 444 ± 78.7 µg/mL
Compound: CCCCCc1cc(C)ccn1
MIC [2]: 745 ± 219 µg/mL
